Mtb glucose medium: 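Phenotypic screen: M. tuberculosis growth, glucose 7H9 medium, 3 days; the read-out is not stated. Tested at 500 µM. Direction is inferred from retests: higher values go with more growth inhibition. Of about 18,000 compounds tested this way, about 1,400 (7.9%) reached 50% or more in at least one test.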
Mtb cholesterol medium: 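Phenotypic screen: M. tuberculosis growth, cholesterol and DPPC medium, 4 days; the read-out is not stated. Compounds at 500 µM. Direction is inferred from retests: higher values go with more growth inhibition. Of about 18,000 compounds tested this way, about 900 (5%) reached 50% or more in at least one test.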

Results are given as percent effect.
The record does not define 0% and 100%; most values in the screen are far below 50% and negative numbers occur (in some assays of this library far below -100).
The entries come from a sample that favours strong results.
A dash means the value is not listed here; it may have been measured.

structure | Mtb glucose medium | Mtb cholesterol medium
CNCC(=O)NC1CCN(Cc2ccc(Br)cc2)CC1 | 59.03% | 52.31%
NCc1ccnc(O)c1 | - | -22.12%
CCOc1cc(C)ccc1CN | -1.524% | -
COC(=O)CN1CCN(c2cccc(F)c2C#N)CC1 | 12.6% | -
COCCOc1cccc(F)c1C(C)O (centres unmarked) | 4.39% | -
Cc1nn(CCCN)c(C)c1Br | 65.86% | 22.35%
CCN(CC)C(=O)CSc1nnnn1C1CCOCC1 | 15.66% | -
Cc1nc(N)sc1C#N | 13.45% | -
N#Cc1cc(F)c(S(=O)(=O)NCCN)c(F)c1 | 11.67% | -
COCC(O)CN(C)C(=O)Cc1cc(Cl)ccc1Cl (centres unmarked) | 17.36% | -
COc1ccc(OC)c(C(O)CN2CCNC(=O)C2)c1 (centres unmarked) | 23.22% | -
CC(=O)NCCCNC(=O)c1cc(F)cc(Br)c1 | - | -3.198%
Cc1ccc(F)cc1CN1C(=O)CC(C)C1=O (centres unmarked) | -5.427% | -
Cc1cccc(N(CCC(N)=O)C(=O)C2CCC2)c1 | 34.59% | -
CCc1nnc(CN2CCOC3(CCCC3)C2)o1 | 58.36% | -
O=C(Cc1cn2ccsc2n1)NCC1CCC1 | 82.37% | 74.9%
CCOc1ccc(CSc2nnc[nH]2)cc1 | 64.43% | 55.64%
COCC1CCN(CC(=O)Nc2ccn(C)n2)C1 (centres unmarked) | - | 3.304%
O=C(NC1CC1)c1cn2ccccc2n1 | - | -2.619%
CC(C)c1ncc(C(=O)N2CCS(=O)(=O)CC2)cn1 | 55.08% | -
CCC(CC)NC(=O)CCn1cncn1 | - | -17.86%
COCC(Nc1nc(C(C)C)ns1)C(N)=O (centres unmarked) | -5.468% | -
COC(CN)Cc1ccccc1 (centres unmarked) | - | -11.69%
COc1ccc(N2CCNC(C)C2)cc1 (centres unmarked) | 30.82% | -
CSCc1nc(CNC(=O)c2cc(C)no2)cs1 | 44.39% | -
CN(Cc1cccs1)C(N)=O | -6.769% | -17.92%
Cc1nccn1CCCNC(=O)c1cn(CCN)nn1 | 2.024% | -
CC(Cc1ccco1)NC(=O)Cn1ccc(=O)[nH]c1=O (centres unmarked) | - | 9.397%
O=C(c1cccnc1)N1CCC(N2CC=CC2)CC1 | 33.64% | -
NCC(c1cccs1)N1CCCC1 (centres unmarked) | 56.3% | 1.651%
COc1ccccc1C(O)CNc1cccc(C)n1 (centres unmarked) | 66.29% | -
Cc1ccccc1C(=O)N[C@H](CO)C(C)C | 9.113% | -
COCCNc1nc(-c2ccc(O)cc2O)cs1 | 49.13% | 36.25%
CNc1nc(C)cc(C(=O)NC(C)c2ncon2)n1 (centres unmarked) | 12.84% | -
NC(=O)C1(CNCc2cccc(Br)c2)CCOCC1 | 22.87% | -
NCC1CN(c2nc3cc(Cl)ccc3o2)CCO1 (centres unmarked) | 70.88% | -
Cc1n[nH]cc1CNC(C)Cn1cccn1 (centres unmarked) | -2.925% | -
COc1nc(N)cc(=O)[nH]1 | -16.9% | -
O=C(NCc1ccncc1)C1COCCO1 (centres unmarked) | -3.455% | -
O=C1COCC2(CC2)N1 | - | 3.331%
c1ccc2c(c1)COC21CCNC1 (centres unmarked) | -5.368% | -
CCN(CC)CC(=O)NCc1ccco1 | 6.602% | -3.689%
COc1cc(C)c(CNC2CC(=O)N(C)C2)cc1OC (centres unmarked) | 0.2777% | -
NCc1cccc(NC(=O)NC2CC2)c1 | 6.196% | -
NCCCNS(=O)(=O)c1ccc(Cl)cc1 | 44.74% | -
Cn1ncnc1NC(=O)c1ccc(Br)cn1 | - | 15.83%
OCCNCCNCc1ccc(-c2ccccc2F)o1 | 62.58% | 7.661%
COC(=O)CCCC(=O)N1CCC2(CCCC2)C1 | 53.13% | -
N#CCCCSc1nnc(N)s1 | - | 45.92%
COC(=O)c1ccccc1NC(=O)c1csnn1 | -6.098% | -
CC(C)(CN)C1(O)CCOCC1 | - | 13.15%
CCCS(=O)(=O)NC1CCNC1 (centres unmarked) | 3.397% | -
CCC(C(=O)Nc1ncccc1O)N(C)C (centres unmarked) | -5.734% | -21.24%
CCO[C@H]1CN(Cc2snnc2C(C)C)C[C@@H]1O | - | 1.784%
Cc1cc(CN)c(C)n1C | 37.3% | 14.52%
CC(O)C(=O)N1C[C@H]2CN(C(=O)OC(C)(C)C)C[C@H]2C1 (some centres unmarked) | 18.31% | -
O=S(=O)(c1ccc(CN2CCC[C@H]2CO)cc1)C(F)F | - | 12.67%
COc1ccc(Cc2[nH][nH]c(=O)c2CCN)cc1 | 60.4% | 48.3%
Cc1cccc(S(=O)(=O)N2CC[C@H](N)C2)c1C#N | -3.853% | -
Cc1cc(=O)[nH]c2ccc(S(N)(=O)=O)cc12 | 2.764% | -
CCC1C(=O)NCCN1C(=O)c1cnsn1 (centres unmarked) | -14.03% | -
O=S(=O)(NCCNc1ccccn1)c1cccnc1 | 3.618% | -45.4%
O=c1ccccn1CCO | -6.806% | -
O=C(NCCc1cn[nH]c1)C(O)c1ccc(Cl)cc1 (centres unmarked) | 0.1695% | -
COCc1ccccc1CNC(=O)c1nc(C)ns1 | 72.27% | 59.68%
Cc1cnccc1NCCNC(=O)c1ccncc1 | - | 6.63%
COCCNC(=O)c1cc(-c2cccc(O)c2)on1 | 61% | -
CC(NS(C)(=O)=O)C(=O)N1CCc2ccc(Br)cc21 (centres unmarked) | 43.57% | -
O=C(Nc1ccc(F)cc1Cl)N[C@@H]1CNCC[C@H]1O | 3.715% | -
CCc1nccn1CCNC(=O)[C@H]1CC[C@@H](O)CC1 | -10.97% | -
COc1cc(F)ccc1C(C)N (centres unmarked) | 7.625% | -
COc1ccccc1N(C)C(=O)Cn1cnnn1 | - | -1.938%
Cc1cccc(C[S+]([O-])CC(=O)NCC2CC2)c1 (centres unmarked) | 51.98% | 52.46%
CC(NC(=O)c1cc(N(C)C)ccn1)c1ncon1 (centres unmarked) | 1.797% | -
CC(C)(C)NC(=O)CN1CCN(CCC#N)CC1 | 5.698% | -
CCNC(=O)c1cc(C#N)cn1C | - | -0.5858%
COc1ccc(-c2nc(CN)cs2)cc1 | 29.1% | -
CN(C)c1cc(CNC(=O)c2ccc(Br)o2)ccn1 | 58.36% | -

Repeated from the top, 10 entries:

| structure | Mtb glucose medium | Mtb cholesterol medium |
|---|---|---|
| `CNCC(=O)NC1CCN(Cc2ccc(Br)cc2)CC1` | 59.03% | 52.31% |
| `NCc1ccnc(O)c1` | - | -22.12% |
| `CCOc1cc(C)ccc1CN` | -1.524% | - |
| `COC(=O)CN1CCN(c2cccc(F)c2C#N)CC1` | 12.6% | - |
| `COCCOc1cccc(F)c1C(C)O` (centres unmarked) | 4.39% | - |
| `Cc1nn(CCCN)c(C)c1Br` | 65.86% | 22.35% |
| `CCN(CC)C(=O)CSc1nnnn1C1CCOCC1` | 15.66% | - |
| `Cc1nc(N)sc1C#N` | 13.45% | - |
| `N#Cc1cc(F)c(S(=O)(=O)NCCN)c(F)c1` | 11.67% | - |
| `COCC(O)CN(C)C(=O)Cc1cc(Cl)ccc1Cl` (centres unmarked) | 17.36% | - |

Source: ChEMBL document CHEMBL3988442, “University of Dundee, Small-Polar-MMV Screening Library” (2021).